Anti-infective test results gathered from many reports (values: NIAID ChemDB through PubChem).

All rows: tests in culture; species: Candida tropicalis; endpoint: MIC100

A number after MIC or MFC names an inhibition level or a share of isolates. Rows are shuffled and stem from different studies.

{"SMILES": "CC(=O)Nc1ccc(S(=O)(=O)Nn2sc3ccccc3c2=O)cc1", "strain": "ATCC 1369", "result": ">100 µg/mL"}
{"SMILES": "CC(C)C[C@@H]1NC(=O)[C@H](C(C)C)NC1=O", "strain": "MTCC 184", "method": "broth dilution", "result": "16 µg/mL"}
{"SMILES": "Cc1ccc(-c2c3c(N)c4c(nc3nc3c2c(C)nn3-c2ccccc2)CCC4)cc1", "strain": "CCC 131", "method": "broth dilution / absorbance", "result": "125 µg/mL"}
{"SMILES": "O/N=C\\c1ccccc1", "result": "4130 µM"}
{"SMILES": "CC(=O)Nc1ccc(S(=O)(=O)N(n2sc3ccccc3c2=O)S(=O)(=O)c2ccc(NC(C)=O)cc2)cc1", "strain": "ATCC 1369", "result": ">100 µg/mL"}
{"SMILES": "O=[N+]([O-])c1ccc(/C=N\\O)cc1", "result": "3010 µM"}
{"SMILES": "Cc1ccc2sn(N(S(=O)(=O)c3ccc(N)cc3)S(=O)(=O)c3ccc(N)cc3)c(=O)c2c1", "strain": "ATCC 1369", "result": ">100 µg/mL"}
{"SMILES": "O/N=C\\c1ccc(O)cc1", "method": "broth dilution", "result": ">7290 µM"}
{"SMILES": "C[C@H]1[C@H](O)[C@@H](C)/C=C/C=C/C=C/C=C/C=C/C=C/C=C/[C@H](O[C@@H]2O[C@H](C)[C@@H](O)[C@H](N)[C@@H]2O)C[C@@H]2O[C@](O)(C[C@@H](O)C[C@@H](O)CC[C@H](O)[C@@H](O)C[C@@H](O)CC(=O)O[C@H]1C)C[C@H](O)[C@H]2C(=O)O", "strain": "ATCC 201380", "result": "2.5 µg/mL"}
{"SMILES": "O/N=C\\c1ccc(F)cc1", "result": "7200 µM"}
{"SMILES": "COc1ccc(-c2cc3cc(Cl)cnc3[nH]2)c(C)c1", "strain": "ATCC 201380", "result": "15.6 µg/mL"}
{"SMILES": "CC(=O)Nc1ccc(S(=O)(=O)Nn2sc3ccc(C)cc3c2=O)cc1", "strain": "ATCC 1369", "result": ">100 µg/mL"}
{"SMILES": "Clc1cnc2[nH]ccc2c1", "strain": "ATCC 201380", "result": "15.6 µg/mL"}
{"SMILES": "O=C1N[C@@H](Cc2c[nH]c3ccccc23)C(=O)N2CCC[C@@H]12", "strain": "MTCC 184", "method": "broth dilution", "result": "4 µg/mL"}
{"SMILES": "O=[N+]([O-])c1cccc(/C=N\\O)c1", "result": "3010 µM"}
{"SMILES": "Cc1ccc(-c2c3c(N)c4c(nc3nc3c2c(C)nn3-c2ccccc2)CCCCC4)cc1", "strain": "CCC 131", "method": "broth dilution / absorbance", "result": "125 µg/mL"}

For reference, 2 entries again:

| SMILES | strain | method | result |
|---|---|---|---|
| O=C1N[C@@H](Cc2c[nH]c3ccccc23)C(=O)N2CCC[C@@H]12 | MTCC 184 | broth dilution | 4 µg/mL |
| Cc1ccc(-c2c3c(N)c4c(nc3nc3c2c(C)nn3-c2ccccc2)CCCCC4)cc1 | CCC 131 | broth dilution / absorbance | 125 µg/mL |